Tests used:
[1] = in vitro; conditions: human, TZM-bl cells
[2] = in vitro; conditions: human, MT4 cells
[3] = in vitro; conditions: human, MT4 cells; remark: listed apart in the source
[4] = tested on: TZM; assay: Cytotoxicity in uninfected human TZM-bl assessed as reduction in cell viability incubated for 1 day by Cyto-tox-Glo cytotoxicity assay; assay type: cell-based; conditions: 24 h

| Compound | selectivity ratio at 24 h [1] | also measured |
| --- | --- | --- |
| COc1ccc(N(C)C(=O)[C@H](Cc2ccccc2)NC(=O)CN2CCN(S(=O)(=O)c3cccc([N+](=O)[O-])c3)CC2=O)cc1 | > 48.8 | – |
| COc1ccc(N(C)C(=O)[C@H](Cc2ccccc2)NC(=O)CN2CCN(S(=O)(=O)c3ccc(Cl)cc3)CC2=O)cc1 | > 31.7 | – |
| COc1ccc(N(C)C(=O)[C@H](Cc2ccccc2)NC(=O)CNS(=O)(=O)c2ccc(C)cc2)cc1 | > 6.45 | – |
| COc1ccc(N(C)C(=O)[C@H](Cc2ccccc2)NC(=O)CNS(=O)(=O)c2cccc([N+](=O)[O-])c2)cc1 | > 4.26 | – |
| COc1ccc(N(C)C(=O)[C@H](Cc2ccccc2)NC(=O)CN2CCN(S(=O)(=O)c3ccccc3F)CC2=O)cc1 | > 71.4 | – |
| COc1ccc(N(C)C(=O)[C@H](Cc2ccccc2)NC(=O)CN2CCN(S(=O)(=O)c3ccccc3N)CC2=O)cc1 | > 64.5 | – |
| COc1ccc(N(C)C(=O)[C@H](Cc2ccccc2)NC(=O)CNS(=O)(=O)c2ccc(N)cc2)cc1 | > 6.06 | – |
| COc1ccc(N(C)C(=O)[C@H](Cc2ccccc2)NC(=O)CNS(=O)(=O)c2ccc(Cl)cc2)cc1 | > 3.92 | – |
| COc1ccc(N(C)C(=O)[C@H](Cc2ccccc2)NC(=O)CNS(=O)(=O)c2ccc(OC)cc2)cc1 | > 3.77 | – |
| COc1ccc(N(C)C(=O)[C@H](Cc2ccccc2)NC(=O)CNS(=O)(=O)c2cc(C)cc(C)c2)cc1 | > 4.26 | – |
| COc1ccc(N(C)C(=O)[C@H](Cc2ccccc2)NC(=O)CN2CCN(S(=O)(=O)c3ccccc3)CC2=O)cc1 | > 95.2 | selectivity ratio [2]: 153; selectivity ratio [3]: 3390 |
| COc1ccc(N(C)C(=O)[C@H](Cc2ccccc2)NC(=O)CNS(=O)(=O)c2ccc(F)cc2)cc1 | > 5.88 | – |
| COc1ccc(N(C)C(=O)[C@H](Cc2ccccc2)NC(=O)CN2C(=O)N(CC(=O)N[C@@H](Cc3ccccc3)C(=O)N(C)c3ccc(OC)cc3)S(=O)(=O)c3cc(Br)ccc32)cc1 | > 3.85 | – |
| COc1ccc(N(C)C(=O)[C@H](Cc2ccccc2)NC(=O)CN2C(=O)Nc3ccc(OC)cc3S2(=O)=O)cc1 | > 7.41 | – |
| COc1ccc(N(C)C(=O)[C@H](Cc2ccccc2)NC(=O)CNS(=O)(=O)c2ccccc2N)cc1 | > 4.44 | – |
| COc1ccc(N(C)C(=O)[C@H](Cc2ccccc2)NC(=O)CN2CCN(S(=O)(=O)c3ccccc3[N+](=O)[O-])CC2=O)cc1 | > 32.8 | CC50 [4]: > 32.8 µM |
| COc1ccc(N(C)C(=O)[C@H](Cc2ccccc2)NC(=O)CN2CCN(S(=O)(=O)c3ccc(OC)cc3)CC2=O)cc1 | > 52.6 | – |
| COc1ccc(N(C)C(=O)[C@H](Cc2ccccc2)NC(=O)CNS(=O)(=O)c2c(C(C)C)cc(C(C)C)cc2C(C)C)cc1 | > 4.17 | – |
| COc1ccc(N(C)C(=O)[C@H](Cc2ccccc2)NC(=O)CNS(=O)(=O)c2ccc(Br)cc2)cc1 | > 4.35 | – |
| COc1ccc(N(C)C(=O)[C@H](Cc2ccccc2)NC(=O)CN2C(=O)N(CC(=O)N[C@@H](Cc3ccccc3)C(=O)N(C)c3ccc(OC)cc3)S(=O)(=O)c3cc(Cl)ccc32)cc1 | > 4.76 | – |
| COc1ccc(N(C)C(=O)[C@H](Cc2ccccc2)NC(=O)CNS(=O)(=O)c2ccccc2[N+](=O)[O-])cc1 | > 4.35 | – |
| COc1ccc(N(C)C(=O)[C@H](Cc2ccccc2)NC(=O)CNS(=O)(=O)c2c(C)cc(C)cc2C)cc1 | > 3.57 | – |
| COc1ccc(N(C)C(=O)[C@H](Cc2ccccc2)NC(=O)CNS(=O)(=O)c2cccc(N)c2)cc1 | > 4.88 | – |
| COc1ccc(N(C)C(=O)[C@H](Cc2ccccc2)NC(=O)CN2C(=O)N(CC(=O)N[C@@H](Cc3ccccc3)C(=O)N(C)c3ccc(OC)cc3)S(=O)(=O)c3cc(F)ccc32)cc1 | > 6.06 | – |
| COc1ccc(N(C)C(=O)[C@H](Cc2ccccc2)NC(=O)CN2CCN(S(=O)(=O)c3cccc(N)c3)CC2=O)cc1 | > 105 | – |
| COc1ccc(N(C)C(=O)[C@H](Cc2ccccc2)NC(=O)CN2C(=O)Nc3ccc(C)cc3S2(=O)=O)cc1 | > 6.25 | – |

— ChEMBL document CHEMBL4342517, “Design, Synthesis, and Mechanism Study of Benzenesulfonamide-Containing Phenylalanine Derivatives as Novel HIV-1 Capsid Inhibitors with Improved Antiviral Activities” (J Med Chem, 2020)
